This assay addresses HA of A/Singapore/1/1957 (H2N2), on VLP (Influenza A virus (H2N2)). As to the kind of experiment: cell-based or functional assay.

Turning to murine hybridoma mAb S139/1 (antibody), the HAI activity is above 50 µg/mL.
